One test concerns the target T1, α2β1γ2 GABAA receptor (mouse, UniProt P26048 29-451; P50571 26-474; P22723 39-474).
T1 sequence (looked up) 1: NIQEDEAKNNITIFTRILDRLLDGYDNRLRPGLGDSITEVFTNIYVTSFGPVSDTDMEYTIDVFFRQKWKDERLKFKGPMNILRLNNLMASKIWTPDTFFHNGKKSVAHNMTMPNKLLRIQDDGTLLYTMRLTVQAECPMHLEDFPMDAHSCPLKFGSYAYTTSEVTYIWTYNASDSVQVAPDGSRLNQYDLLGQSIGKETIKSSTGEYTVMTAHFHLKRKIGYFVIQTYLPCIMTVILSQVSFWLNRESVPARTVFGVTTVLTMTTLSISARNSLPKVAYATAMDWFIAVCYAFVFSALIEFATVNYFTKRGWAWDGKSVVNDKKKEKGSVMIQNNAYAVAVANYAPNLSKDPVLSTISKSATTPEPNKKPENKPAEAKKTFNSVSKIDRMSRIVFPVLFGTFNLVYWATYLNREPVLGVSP
T1 sequence (looked up) 2: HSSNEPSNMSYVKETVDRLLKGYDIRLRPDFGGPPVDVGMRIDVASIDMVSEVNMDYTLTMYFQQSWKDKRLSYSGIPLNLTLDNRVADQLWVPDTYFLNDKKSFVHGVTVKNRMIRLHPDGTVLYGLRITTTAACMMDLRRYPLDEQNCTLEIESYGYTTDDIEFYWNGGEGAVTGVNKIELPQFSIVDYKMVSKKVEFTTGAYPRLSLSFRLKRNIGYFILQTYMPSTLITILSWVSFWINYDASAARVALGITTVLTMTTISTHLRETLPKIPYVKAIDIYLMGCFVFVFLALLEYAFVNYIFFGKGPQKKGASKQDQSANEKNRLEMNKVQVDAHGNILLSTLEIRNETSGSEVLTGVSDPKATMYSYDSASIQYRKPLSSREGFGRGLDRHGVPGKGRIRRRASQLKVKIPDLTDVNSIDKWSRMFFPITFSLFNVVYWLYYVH
T1 sequence (looked up) 3: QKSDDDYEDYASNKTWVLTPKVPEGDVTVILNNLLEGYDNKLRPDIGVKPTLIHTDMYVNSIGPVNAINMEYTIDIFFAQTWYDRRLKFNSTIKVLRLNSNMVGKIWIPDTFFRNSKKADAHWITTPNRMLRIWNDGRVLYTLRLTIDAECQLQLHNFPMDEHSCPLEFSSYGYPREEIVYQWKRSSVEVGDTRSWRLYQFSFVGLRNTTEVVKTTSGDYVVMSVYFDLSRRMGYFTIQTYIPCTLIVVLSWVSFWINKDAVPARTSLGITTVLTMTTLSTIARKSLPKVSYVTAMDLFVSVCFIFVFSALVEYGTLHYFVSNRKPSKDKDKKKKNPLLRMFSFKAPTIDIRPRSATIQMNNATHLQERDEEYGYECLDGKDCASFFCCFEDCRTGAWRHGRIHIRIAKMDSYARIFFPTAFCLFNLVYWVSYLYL

The target in the next test is T2, α1β2γ2 GABAA receptor (mouse, UniProt P62812 28-455; P63137 26-512; P22723 39-474).
T2 sequence (looked up) 1: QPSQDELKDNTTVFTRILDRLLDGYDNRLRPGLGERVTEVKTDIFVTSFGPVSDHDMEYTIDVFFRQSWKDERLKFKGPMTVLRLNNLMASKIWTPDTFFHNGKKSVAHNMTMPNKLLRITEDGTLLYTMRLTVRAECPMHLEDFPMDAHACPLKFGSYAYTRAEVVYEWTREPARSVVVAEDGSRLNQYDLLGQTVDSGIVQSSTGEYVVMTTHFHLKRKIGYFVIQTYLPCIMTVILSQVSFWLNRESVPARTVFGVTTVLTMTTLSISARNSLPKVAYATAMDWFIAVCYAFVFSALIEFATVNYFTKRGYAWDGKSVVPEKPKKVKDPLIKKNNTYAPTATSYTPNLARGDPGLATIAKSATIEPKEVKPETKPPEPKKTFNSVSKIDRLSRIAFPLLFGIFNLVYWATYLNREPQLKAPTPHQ
T2 sequence (looked up) 2: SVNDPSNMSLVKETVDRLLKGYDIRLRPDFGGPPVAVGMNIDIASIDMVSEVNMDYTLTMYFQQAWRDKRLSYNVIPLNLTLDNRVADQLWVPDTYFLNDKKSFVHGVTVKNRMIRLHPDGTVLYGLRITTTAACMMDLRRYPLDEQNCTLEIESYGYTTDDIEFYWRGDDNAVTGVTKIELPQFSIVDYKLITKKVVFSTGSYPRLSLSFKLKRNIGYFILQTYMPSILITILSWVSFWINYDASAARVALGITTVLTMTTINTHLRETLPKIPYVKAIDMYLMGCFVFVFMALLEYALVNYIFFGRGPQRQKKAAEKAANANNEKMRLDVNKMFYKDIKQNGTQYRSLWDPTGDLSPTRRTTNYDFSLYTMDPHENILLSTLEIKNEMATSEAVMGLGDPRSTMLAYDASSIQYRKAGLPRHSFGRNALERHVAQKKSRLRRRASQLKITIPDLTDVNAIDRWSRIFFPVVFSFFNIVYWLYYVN
T2 sequence (looked up) 3: T1 sequence (looked up) 3

The next test concerns the target T3, α2β2γ2 GABAA receptor (mouse, UniProt P26048 29-451; P63137 26-512; P22723 39-474).
T3 sequence (looked up) 1: T1 sequence (looked up) 1
T3 sequence (looked up) 2: T2 sequence (looked up) 2
T3 sequence (looked up) 3: T1 sequence (looked up) 3

The next test concerns the target T4, α1β1γ2 GABAA receptor (mouse, UniProt P62812 28-455; P50571 26-474; P22723 39-474).
T4 sequence (looked up) 1: T2 sequence (looked up) 1
T4 sequence (looked up) 2: T1 sequence (looked up) 2
T4 sequence (looked up) 3: T1 sequence (looked up) 3

B1: α-bungarotoxin coupled with Alexa Fluor 555 (ligand)
chain: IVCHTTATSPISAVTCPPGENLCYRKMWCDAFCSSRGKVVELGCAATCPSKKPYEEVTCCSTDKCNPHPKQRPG
modifications: Alexa Fluor 555 coupled (site not stated)
As to B1, the “mean cell surface fluorescence intensity” value was found to be 1060 a.u with α2β1γ2 GABAA receptor, 324 a.u in the test with α1β2γ2 GABAA receptor, 1290 a.u with α2β2γ2 GABAA receptor and 592 a.u with α1β1γ2 GABAA receptor.

The values above are taken from paper PMC4398322, “Snake neurotoxin α-bungarotoxin is an antagonist at native GABAA receptors” (Neuropharmacology, 2015).
